Record: PubChem BioAssay AID1259414 (Drosophila RNAi Screening Center, 2018)
Purpose: 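Host factors increasing or decreasing Wolbachia levels in cultured fly cells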 (primary screen). Cell system: Drosophila JW18 cells infected with Wolbachia. Reagent: long dsRNA against Drosophila genes, 0.25 µg dsRNA per well of a 384-well plate. Time to read-out: 5 days. Treatment: cells persistently infected with Wolbachia before knock-down; no added drug. Measured: 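Imaged fluorescence in situ signal for Wolbachia 23S rRNA per DAPI-counted host cell, given as a robust z-score within each plate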. Scale: Wolbachia per cell robust z: higher = more Wolbachia per host cell than the plate typical. Rule for the call: 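Hit when robust z is 1.5 or more, or -1.5 or less, in at least two of three replicates; excludes dsRNAs with several or no targets, genes not expressed in JW18 and well A1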.
The deposit covers about 24,000 reagents; this is a random part of those with a known target gene and a result. Over the whole deposit, about 1,210 (5%) were called active. 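Inactive calls also include excluded dsRNAs with several or no targets, genes unexpressed in JW18, and well A1, regardless of score.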 A plus sign joins genes that one reagent is predicted to hit.

predicted target | DRSC id | Wolbachia per cell robust z, rep 1 | Wolbachia per cell robust z, rep 2 | Wolbachia per cell robust z, rep 3 | outcome
Arf6 | DRSC05921 | 0.367 | 1.01 | -0.0804 | inactive
CG14546 | DRSC14890 | -0.00737 | 0.538 | 1.53 | inactive
Alg9 | DRSC14407 | -10.5 | -1.47 | 0.0361 | inactive
CG33483 | DRSC14019 | -0.08 | 1.27 | 1.01 | inactive
Dhc36C | DRSC03315 | 0.865 | 0.875 | 0.854 | inactive
CG8399 | DRSC07163 | 0.984 | -0.236 | -0.139 | inactive
CG10804 | DRSC17764 | 1.15 | -0.681 | 0.294 | inactive
Patj | DRSC08712 | -0.0193 | 0.166 | 0.699 | inactive
Patj | DRSC28714 | 0.807 | 0.503 | 1.22 | inactive
tara | DRSC23014 | 0.000471 | -0.78 | -0.721 | inactive
tara | DRSC29664 | -0.626 | -0.491 | -0.261 | inactive
tara | DRSC40779 | 0.425 | -0.298 | 1.32 | inactive
PH4alphaSG2 | DRSC15037 | -0.121 | 0.331 | 0.371 | inactive
Eip93F | DRSC23072 | -3.16 | -0.00445 | 0.189 | inactive
Eip93F | DRSC27506 | -1.33 | 0.025 | -1.54 | inactive
eIF3g1 | DRSC18427 | 2.31 | 0.0206 | 3.27 | active
eIF3g1 | DRSC29282 | 0.947 | 0.675 | -0.237 | inactive
GluRIIB | DRSC03335 | 1.42 | -0.0394 | 0.882 | inactive
Delta | DRSC16648 | -0.475 | -1.64 | -1.31 | inactive
Delta | DRSC24112 | 1.03 | 1.89 | -0.122 | inactive
Rbf | DRSC18704 | -1.7 | -0.743 | -0.663 | inactive
Rbf | DRSC25213 | -0.904 | 0.285 | 0.342 | inactive
nac | DRSC16520 | -2.42 | 0.223 | -0.417 | inactive
hfw | DRSC18506 | -0.821 | -0.136 | 0.786 | inactive
hfw | DRSC25958 | -2.12 | -0.351 | -2.06 | active
CG12477 | DRSC09886 | 0.888 | -0.236 | 0.736 | inactive
CG12477 | DRSC24078 | 0.99 | 1.04 | 0.545 | inactive
CG34176 | DRSC00435 | 1.75 | 2.26 | -0.274 | inactive
CG34176 | DRSC41292 | -0.0911 | 0.767 | 0.233 | inactive
CG32091 | DRSC10820 | 0.395 | 0.447 | -0.0452 | inactive
CG32834 | DRSC21929 | -0.589 | -0.965 | -0.573 | inactive
CG32834 | DRSC28346 | 0.705 | 0.225 | 0.197 | inactive
CG30058 + CG34235 + CG34312 | DRSC38871 | -0.466 | 0.215 | 0.548 | inactive
CG46281 + CG46280 | DRSC14505 | 0.551 | 0.381 | 0.527 | inactive
CG32573 + CG42512 | DRSC19532 | 0.315 | -1.53 | 0.435 | inactive
wwk | DRSC01941 | -0.819 | -0.0977 | 1.13 | inactive
Rtnl2 | DRSC12609 | -0.237 | -1.34 | -1.2 | inactive
Rtnl2 | DRSC21655 | -1.25 | 0.304 | 1.26 | inactive
Rtnl2 | DRSC26022 | -0.744 | -0.927 | 0.318 | inactive
yellow-f2 | DRSC16372 | -1.22 | -0.929 | 0.396 | inactive
yellow-f2 | DRSC26523 | -1.48 | 0.255 | -1.72 | inactive

Looked up above:
Result for eIF3g1 [DRSC18427] under “Wolbachia per cell robust z, rep 1”: 2.31
CG14546 [DRSC14890], Wolbachia per cell robust z, rep 2 → 0.538
Dhc36C [DRSC03315], outcome → inactive
CG34176 [DRSC41292], outcome: inactive
Rtnl2 [DRSC26022], outcome → inactive

The list goes on:
predicted target | DRSC id | Wolbachia per cell robust z, rep 1 | Wolbachia per cell robust z, rep 2 | Wolbachia per cell robust z, rep 3 | outcome
Mfe2 | DRSC19869 | 0.739 | -3.35 | 1.09 | inactive
CG3009 | DRSC18263 | -0.0828 | -0.996 | 0.104 | inactive
CG3009 | DRSC28666 | 0.487 | -1.56 | 0.24 | inactive
CG42590 | DRSC41403 | -2.66 | 0.749 | 0.607 | inactive
CG15912 | DRSC18105 | -1.62 | -8.32 | -0.124 | active
CG15912 | DRSC28275 | 0.746 | 0.00858 | 1.09 | inactive
CG15912 | DRSC41572 | -0.608 | -0.163 | 0.4 | inactive
hubl | DRSC06825 | 1.37 | -0.0482 | 0.859 | inactive
Nep4 | DRSC15539 | -0.445 | 0.849 | 0.274 | inactive
Pkd2 | DRSC02962 | -0.497 | 0.0294 | 0.575 | inactive
Pkd2 | DRSC27522 | -1.54 | -0.0737 | -0.671 | inactive
RpS5a | DRSC20282 | 0.241 | -2.41 | 11.7 | inactive
cDIP | DRSC14267 | -2.61 | 0.229 | -1.37 | inactive
CG33339 | DRSC22917 | 1.39 | -3.13 | 1.36 | inactive
CG33339 | DRSC29651 | -0.312 | -0.134 | 0.845 | inactive
hfp | DRSC08731 | -0.0973 | 0.352 | -0.0132 | inactive
hfp | DRSC08732 | -0.842 | -0.302 | 0.467 | inactive
hfp | DRSC22408 | 0.386 | 0.871 | -0.0452 | inactive
hfp | DRSC25143 | 1.33 | 0.853 | 1.5 | inactive
Lpin | DRSC07241 | 0.908 | -1.2 | -1.05 | inactive
CG33771 | DRSC11718 | -0.0949 | -0.108 | 0.608 | inactive
CG2224 | DRSC15429 | -1.11 | -0.185 | 0.412 | inactive
CG2224 | DRSC24269 | 0.487 | -0.855 | -0.558 | inactive
Dek | DRSC07418 | 0.749 | -0.149 | 0.723 | inactive
Dek | DRSC23928 | 1.28 | 1.26 | 2.23 | inactive
CG10570 + CG42502 | DRSC02071 | 0.406 | 0.382 | -1.93 | inactive
CG10570 + CG42502 | DRSC28566 | 0.587 | 0.975 | -0.302 | inactive
